From publication PMC12677607, “Identification of a Pair of Linear or Cyclic Naturally Inspired Bifunctional Lipopeptide Antibiotics That Overcome Antimicrobial Resistance” (Advanced Science, 2025)

Experiment: Isothermal titration calorimetry
Type: binding
Conditions: Table S12; ITC, 20 mM HEPES pH 7.5
Protocol: Calorimetric experiments were performed to evaluate the interaction between CL, PE, PG, or LPS and aquicidine L or aquicidine C4. To determine the affinity between aquicidine L or aquicidine C4 and CL, PE, or PG, both 2 mM CL, PE, or PG and 0.2 mM aquicidine L or aquicidine C4 were dissolved in 20 mM HEPES buffer (pH 7.5). To determine the interaction between LPS and aquicidine L or aquicidine C4, 2 mM LPS and 0.2 mM aquicidine L or aquicidine C4 were dissolved in H2O. Sequential injections of CL, PE, PG, or LPS into the calorimetric cell filled with aquicidine L or aquicidine C4 were repeated 20 times with equilibration intervals of 200 s. Data were collected by using a MicroCal PEAQ‐ITC instrument and calculated for the equilibrium dissociation constant (KD), change of enthalpy (ΔH), and change of entropy […].

Row | SMILES | ΔG (kcal/mol), CL [kcal/mol] | ΔG (kcal/mol), PE [kcal/mol] | ΔG (kcal/mol), PG [kcal/mol] | ΔH (kcal/mol), CL [kcal/mol] | ΔH (kcal/mol), PE [kcal/mol] | ΔH (kcal/mol), PG [kcal/mol] | ΔS (kcal/mol/K), CL [kcal/mol/K] | ΔS (kcal/mol/K), PE [kcal/mol/K] | ΔS (kcal/mol/K), PG [kcal/mol/K]
1 | CCCCCCCCCCCCCC(=O)N[C@@H](CN)C(=O)N[C@H](C(=O)N[C@@H](CC(C)C)C(=O)N[C@H]1COC(=O)[C@H](Cc2ccccc2)NC(=O)[C@H](CC(N)=O)NC(=O)[C@H](CCCN)NC(=O)[C@H]([C@@H](C)CC)NC(=O)[C@H](Cc2ccccc2)NC(=O)[C@H](CN)NC(=O)[C@H](CCN)NC1=O)[C@@H](C)O [synAQU5-C4] (Myristoyl-[Dap]TLS[Dab][Dap]FI[Orn]NF; ester 4-C) | -12.66 | -5.24 | -11.25 | -0.73 | -27.30 | -0.81 | 0.040 | -0.074 | 0.035
2 | CCCCCCCCCCCCCC(=O)N[C@@H](CN)C(=O)N[C@H](C(=O)N[C@@H](CC(C)C)C(=O)N[C@@H](CO)C(=O)N[C@@H](CCN)C(=O)N[C@@H](CN)C(=O)N[C@@H](Cc1ccccc1)C(=O)N[C@H](C(=O)N[C@@H](CCCN)C(=O)N[C@@H](CC(N)=O)C(=O)N[C@@H](Cc1ccccc1)C(=O)O)[C@@H](C)CC)[C@@H](C)O [synAQU5-L] (Myristoyl-[Dap]TLS[Dab][Dap]FI[Orn]NF-OH) | -9.38 | -6.09 | -9.01 | -1.03 | -4.90 | -0.96 | 0.028 | 0.004 | 0.027

Bridge positions count the residues as written; N and C are the ends. Square brackets hold non-standard residues; d marks the D form. Peptide text beside a SMILES is read from it. * marks the point of attachment. Myristoyl = CCCCCCCCCCCCCC(=O)*; Orn = NCCC[C@H](N)C(=O)O; Dab = NCC[C@H](N)C(=O)O; Dap = NC[C@H](N)C(=O)O
